Pooled drug test results. Numbers come from NIAID ChemDB, via PubChem.

Shared fields: growth or infection tests; agent: Hepatitis C virus; endpoint: EC50

ECn: concentration that inhibits the pathogen or its effect by n%.

CC(C)S(=O)(=O)NC(=O)c1c(-c2ccc[nH]c2=O)c2c3occc3ccc2n1Cc1ccccc1F ; read by: replicon ; result: <0.5 µM
CN1CCN(c2cc3c(cc2F)c(=O)c(-c2noc(Cc4ccccc4)n2)cn3CCc2ccccc2)CC1 ; strain: 1b ; read by: replicon ; result: <2 µM
C=CC1CC1(NC(=O)[C@@H]1C[C@@H](Oc2cc(-c3ccccc3)nc3cc(OC)ccc23)CN1C(=O)[C@@H](CC(=O)N1CCCc2ccccc21)C(C)(C)C)C(=O)O ; read by: replicon ; result: >10 µM
CC1CCC(C(=O)N(c2cc(-c3ccc(NC(=O)c4ccccn4)s3)sc2C(=O)O)C(C)C)CC1 ; strain: 1a ; read by: replicon ; result: <0.5 µM
O=C(N[C@H]1CCCCC/C=C\[C@@H]2C[C@@]2(C(=O)NS(=O)(=O)C2CC2)NC(=O)C2C[C@@H](OC(=O)N3Cc4cccc(F)c4C3)CN2C1=O)c1ccc2c(c1)B(O)OC2 ; read by: luciferase / replicon ; setting: genotype 1a ; result: 201 nM
CCCCCOc1ccc(N(C(=O)C(C)C)c2nc(-c3cccnc3)cs2)cc1F ; result: <1 µM
Fc1ccccc1-c1cc2ccn(Cc3ccc(OC(F)(F)F)cc3)cc-2n1 ; strain: 1b ; read by: replicon ; result: <100 µM
CC1(C)CC(=O)C2=C(C1)Nc1c(O)cccc1N(C(=O)CCC(=O)N1CCNC(=O)C1)C2c1ccc(OCc2ccccc2)cc1Cl ; strain: 1b ; read by: luciferase / reporter gene / replicon ; result: 46.96 µM
Nc1nc(N)c2ncn([C@@H]3O[C@H](/C=C/P(=O)(O)O)C[C@H]3O)c2n1 ; read by: replicon ; result: >100 µM
O=C(O)c1c(-c2ccc[nH]c2=O)c2c3occc3c(F)cc2n1Cc1ccccc1F ; read by: replicon ; result: <0.5 µM
CCCCCOc1ccc(N(C=O)c2nc(-c3cccnc3)cs2)cc1C(F)(F)F ; result: <1 µM
C=CC1CC1(NC(=O)[C@@H]1C[C@@H](Oc2cc(-c3ccccc3)nc3cc(OC)ccc23)CN1C(=O)[C@@H](CC(=O)N1CCCC1)C(C)(C)C)C(=O)OCC ; read by: replicon ; result: >10 µM
CC1(C)CC(=O)C2=C(C1)Nc1c(O)cccc1N(C(=O)CCC(=O)N1CCC(N3CCOCC3)CC1)[C@H]2c1ccc(OCc2ccccc2)cc1Cl ; strain: 1b ; read by: luciferase / reporter gene / replicon ; result: 5.51 µM
CS(=O)(=O)NC(=O)c1c(-c2ccc[nH]c2=O)c2c3occc3c(F)cc2n1Cc1ccc2onc(N)c2c1 ; read by: replicon ; result: <0.5 µM
CN1CCN(c2cc3c(cc2F)c(=O)c(-c2noc(Cc4ccccc4)n2)cn3Cc2ccccc2F)CC1 ; strain: 1b ; read by: replicon ; result: <10 µM
Fc1ccc(-c2cc(Cn3ccc4c(C5CCCCC5)c(-c5cccc(F)c5F)nc-4c3)on2)c(C(F)(F)F)c1 ; strain: 1b ; read by: replicon ; result: <100 µM
O=C(O)c1c(-c2ccc[nH]c2=O)c2c3sccc3ccc2n1Cc1cc(F)ccc1F ; read by: replicon ; result: >1.5 µM
Nc1nc2c(nnn2[C@@H]2O[C@H](/C=C/P(=O)(O)O)C[C@H]2O)c(=O)[nH]1 ; read by: replicon ; result: 10–100 µM
COc1cc2c(=O)c(-c3nc(Cc4ccccc4)no3)cn(Cc3ccc(Cl)cc3)c2cc1OC ; strain: 1b ; read by: replicon ; result: >10 µM
CN1CC[C@H](C(=O)Nc2ccc(-c3ccc4nc(NCc5ccc(S(N)(=O)=O)cc5)nc(NCC(F)(F)F)c4n3)cc2)C1 ; read by: replicon ; result: <0.1 µM
C[C@H]1COB(O)C1NC(=O)[C@@H]1C[C@@H]2CN1C(=O)[C@H](C(C)(C)C)NC(=O)OCC(C)(C)CCCCc1cccc3c1CN(C3)C(=O)O2 ; read by: replicon ; setting: genotype 1a ; result: 1.9 µM
CC(=O)N1c2cccc(O)c2NC2=C(C(=O)CC(C)(C)C2)C1c1ccc(OCc2ccccc2)cc1F ; strain: 1b ; read by: luciferase / reporter gene / replicon ; result: 1.08 µM
CB1OC[C@@H](C)C1NC(=O)[C@@H]1C[C@@H]2CN1C(=O)[C@H](C(C)(C)C)NC(=O)OCC(C)(C)CCCCc1cccc3c1CN(C3)C(=O)O2 ; read by: replicon ; setting: genotype 1a ; result: 33 µM
CC1(C)CC(=O)C2=C(C1)Nc1c(O)cccc1NC2c1ccc(OCc2cccc(F)c2)cc1F ; strain: 1b ; read by: luciferase / reporter gene / replicon ; result: 3.9 µM
COc1ccc2c(O[C@@H]3C[C@H]4C(=O)NC5(C(=O)O)CC5/C=C\CCCCC[C@@H](CC(=O)N5CCCCC5)C(=O)N4C3)cc(-c3ccccc3)nc2c1 ; read by: replicon ; result: <100 µM
CCCCOc1ccc(N(C(N)=O)c2nc(-c3ccncc3)cs2)cc1C(F)(F)F ; result: <1 µM
Cc1cc(C(=O)Nc2ccc(-c3cc(N(C(=O)C4CCC(C)CC4)C(C)C)c(C(=O)O)s3)cc2)nn1C ; strain: 1a ; read by: replicon ; result: <0.5 µM
CCCCCCCCOc1ccc(N(C(N)=O)c2nc(-c3ccc(F)cc3)cs2)cc1 ; result: <1 µM
CCOc1nc(NCc2ccc(S(N)(=O)=O)cc2)nc2ccc(-c3ccc(N4CCC(O)C4=O)cc3)nc12 ; read by: replicon ; result: <0.1 µM
CNc1cc2c(cc1F)c(=O)c(-c1noc(Cc3ccccc3)n1)cn2Cc1ccc(C(F)(F)F)cc1F ; strain: 1b ; read by: replicon ; result: <2 µM
Fc1ccc(-c2cc(Cn3ccc4c(C5CCCCC5)c(-c5ccccc5)nc-4c3)on2)c(C(F)(F)F)c1 ; strain: 1b ; read by: replicon ; result: <100 µM
CCCCCCOc1ccc(N(C(N)=O)c2nc(-c3cccnc3)cs2)cc1 ; result: <1 µM
CC1CCC(C(=O)N(c2cc(-c3ccc(NC(=O)c4ccc(F)cc4)c(Cl)c3)sc2C(=O)O)C(C)C)CC1 ; strain: 1b ; read by: replicon ; result: <0.5 µM
CC1(C)CC(=O)C2=C(C1)Nc1c(O)cccc1N(C(=O)CCC(=O)Nc1ccc(-n3cccc3)cc1)[C@@H]2c1ccc(OCc2ccccc2)cc1Cl ; strain: 1b ; read by: luciferase / reporter gene / replicon ; result: 1.85 µM
CC1CCC(C(=O)N(c2cc(-c3ccc(NC(=O)c4ncc[nH]4)cc3)sc2C(=O)O)C(C)C)CC1 ; strain: 1b ; read by: replicon ; result: <0.5 µM
CCOC(=O)[C@]12C[C@@H]1/C=C\CCCCC[C@H](CC(=O)OC(C)(C)C)C(=O)N1C[C@H](Oc3cc(-c4ccccc4)nc4cc(OC)ccc34)C[C@H]1C(=O)N2 ; read by: replicon ; result: 1–10 µM
Nc1nc2c(ncn2[C@@H]2O[C@H](/C=C/P(=O)(O)O)[C@@H](O)[C@H]2O)c(=O)[nH]1 ; read by: replicon ; result: 10–100 µM
CCCCCOc1ccc(N(C(=O)C(=O)OC)c2nc(-c3ccncc3)cs2)cc1C(F)(F)F ; result: <1 µM
CC1(C)CC(=O)C2=C(C1)Nc1c(O)cccc1N(C(=O)CCC(=O)NC1CCCC1O)C2c1ccc(OCc2ccccc2)cc1Cl ; strain: 1b ; read by: luciferase / reporter gene / replicon ; result: 28.92 µM
COc1ccc2cc(Cn3c(C(=O)O)c(-c4ccc[nH]c4=O)c4c5occc5c(F)cc43)c(Cl)nc2c1 ; read by: replicon ; result: <0.5 µM
Fc1cccc(-c2cc3cn(Cc4ccc(-c5ccc(C(F)(F)F)cc5C(F)(F)F)nn4)ccc-3n2)c1F ; strain: 1b ; read by: replicon ; result: <100 µM
Cc1cc(C(=O)Nc2ccc(-c3cc(N(C(=O)C4CCC(C)CC4)C(C)C)c(C(=O)O)s3)cc2)ccn1 ; strain: 1a ; read by: replicon ; result: <0.5 µM
CC(C)C(=O)N1c2cccc(O)c2NC2=C(C(=O)CC(C)(C)C2)C1c1cnc(Oc2ccccc2Br)s1 ; strain: 1b ; read by: luciferase / reporter gene / replicon ; result: 3.59 µM
CS(=O)(=O)NC(=O)c1c(-c2ccc[nH]c2=O)c2c3c(c(F)cc2n1Cc1cc2ccccc2nc1Cl)CCO3 ; read by: replicon ; result: <0.5 µM
CCCCCCCCc1ccc(N(C(N)=O)c2nc(-c3cccnc3)c(F)s2)cc1C(F)(F)F ; result: <1 µM
CN1CCN(c2cc3c(cc2F)c(=O)c(-c2noc(Cc4ccccc4)n2)cn3Cc2ccc(C(F)(F)F)cc2)CC1 ; strain: 1b ; read by: replicon ; result: <2 µM
CC1(C)CC(=O)C2=C(C1)Nc1c(O)cccc1NC2c1ccsc1 ; strain: 1b ; read by: luciferase / reporter gene / replicon ; result: >10 µM
COC1O[C@H](CO)[C@H](O)[C@H]1O ; read by: replicon ; result: >100 µM
CC(C)Nc1nc(NCc2ccccn2)nc2ccc(-c3ccc(F)cc3)nc12 ; read by: replicon ; result: 0.1–0.25 µM
CCCCOC(=O)[C@H](C)NP(=O)(/C=C/[C@@H]1C[C@@H](O)[C@H](n2cnc(C(N)=O)n2)O1)N[C@@H](C)C(=O)OCCCC ; read by: replicon ; result: >100 µM
C[C@H](N)C(=O)Nc1ccc(-c2ccc3nc(NCc4ccc(S(N)(=O)=O)cc4)nc(NCC(F)(F)F)c3n2)cc1 ; read by: replicon ; result: <0.1 µM
C=CC1CC1(NC(=O)[C@@H]1C[C@@H](Oc2cc(-c3ccccc3)nc3cc(OC)ccc23)CN1C(=O)[C@@H](CC(=O)N1CCc2ccccc2C1)C(C)(C)C)C(=O)OCC ; read by: replicon ; result: >10 µM
O=C1N[C@H]2C(=O)N[C@H]3C(=O)N[C@H](C(=O)N[C@H](C(=O)O)c4cc(O)cc(O)c4-c4cc3ccc4O)[C@H](O)c3ccc(c(Cl)c3)Oc3cc2cc(c3O)Oc2ccc(cc2Cl)C[C@H]2NC(=O)[C@H](NOC(=O)C34CC5CC(CC(C5)C3)C4)c3ccc(O)c(c3)Oc3cc(O)cc(c3)[C@@H]1NC2=O ; strain: HCVcc ; read by: luciferase ; result: 5.7 µM
Fc1cccc(-c2cc3ccn(Cc4nnc(-c5ccc(Cl)cc5)s4)cc-3n2)c1F ; strain: 1b ; read by: replicon ; result: <100 µM
CO[C@@H]1[C@H](O)[C@@H](/C=C/P(=O)(O)O)O[C@H]1n1ccc(N)nc1=O ; read by: replicon ; result: >100 µM
CCOc1nc(NCc2ccc(F)cc2)nc2ccc(-c3ccc(N4CCCC4=O)cc3)nc12 ; read by: replicon ; result: <0.1 µM
COc1cc(OC)c(CCC2(C3CCCC3)CC(O)=C(Sc3nc4nc(C)cc(C)n4n3)C(=O)O2)cc1Cl ; strain: FC ; read by: replicon ; result: 87 µM

The last 5 rows once more:

O=C1N[C@H]2C(=O)N[C@H]3C(=O)N[C@H](C(=O)N[C@H](C(=O)O)c4cc(O)cc(O)c4-c4cc3ccc4O)[C@H](O)c3ccc(c(Cl)c3)Oc3cc2cc(c3O)Oc2ccc(cc2Cl)C[C@H]2NC(=O)[C@H](NOC(=O)C34CC5CC(CC(C5)C3)C4)c3ccc(O)c(c3)Oc3cc(O)cc(c3)[C@@H]1NC2=O ; strain: HCVcc ; read by: luciferase ; result: 5.7 µM
Fc1cccc(-c2cc3ccn(Cc4nnc(-c5ccc(Cl)cc5)s4)cc-3n2)c1F ; strain: 1b ; read by: replicon ; result: <100 µM
CO[C@@H]1[C@H](O)[C@@H](/C=C/P(=O)(O)O)O[C@H]1n1ccc(N)nc1=O ; read by: replicon ; result: >100 µM
CCOc1nc(NCc2ccc(F)cc2)nc2ccc(-c3ccc(N4CCCC4=O)cc3)nc12 ; read by: replicon ; result: <0.1 µM
COc1cc(OC)c(CCC2(C3CCCC3)CC(O)=C(Sc3nc4nc(C)cc(C)n4n3)C(=O)O2)cc1Cl ; strain: FC ; read by: replicon ; result: 87 µM

Two numbers with a dash give a range or band. Conditions beyond the fields shown may differ between rows.